Results of unrelated studies side by side (data: NIAID ChemDB).

All rows: tests in culture; species: Mycobacterium avium intracellulare; read-out: MIC

Rows are shuffled and stem from different studies.

SMILES,strain,read by,setting,value
CSc1nc(N)c2c(n1)NC(c1ccccc1)CC(c1ccc3c(c1)OCO3)=N2,MNT1408,MTT / broth dilution / absorbance,clinical isolate,>32 µg/mL
CCS/C(N)=N/N=C/c1ccccc1O,CNCTC D38/92,,,63 µM
N/C(=N\N=C\c1ccccn1)c1ccccn1,,,,>16 µg/mL
NNC(=O)c1ccncc1,N-897 (HIV-),,,16 µg/mL
CO[C@H]1/C=C/O[C@@]2(C)Oc3c(C)c(O)c4c(O)c(c5c(c4c3C2=O)NC2(CCN(CC(C)C)CC2)N=5)=NC(=O)/C(C)=C\C=C\[C@H](C)[C@H](O)[C@@H](C)[C@@H](O)[C@@H](C)[C@H](OC(C)=O)[C@@H]1C,119,,,0.125 µg/mL
CC1COc2c(N3CCN(C)CC3)c(F)cc3c(=O)c(C(=O)O)cn1c23,N-260,,,50 µg/mL
CCCCS/C(N)=N/N=C/c1ccc2ccccc2n1,CNCTC D38/92,,,16 µM
CCC1Cn2cc([N+](=O)[O-])nc2O1,3 isolates,,,>250 µg/mL
CCS/C(N)=N/N=C/c1ccc2ccccc2n1.CCS/C(N)=N/N=C/c1ccc2ccccc2n1,CNCT D39/93,,,32 µM
COc1cc(NC(C)CCCN)c2nc(C(C)(C)C)cc(C)c2c1Oc1cccc(C(F)(F)F)c1,,,,5 µg/mL
CN(C)C/C=C(/c1ccc(-c2ccc(Br)cc2)cc1)c1ccc(S(C)(=O)=O)cc1,,,,68 µg/mL
CCSc1ncnc2ccccc12,D 38/92,,,>1000 µM
N/C(=N\N=C\c1cc2ccccc2s1)c1ccccn1,,,,>16 µg/mL
COc1cc(C2=NCCN2)ccc1OC/C=C\COc1ccc(C2=NCCN2)cc1OC,ATCC 23068,,,50 µg/mL
CCCCCCCC/C=C/CCCCCCCCC(=O)Oc1c(OC)cc2ccnc3c2c1N(C)C=C3,,,,0.3 µg/mL
CCCCCCCCCCCCCCCCSc1ncnc2ccccc12,D 38/92,,,>1000 µM
CC[C@H](C)C(=O)Oc1ccc([C@H]2O[C@@H]2C)cc1,,,,10.68 µg/mL
CO[C@H]1/C=C/O[C@@]2(C)Oc3c(C)c(O)c4c(O)c(c5c(c4c3C2=O)NC2(CCN(CC(C)C)CC2)N=5)=NC(=O)/C(C)=C\C=C\[C@H](C)[C@H](O)[C@@H](C)[C@@H](O)[C@@H](C)[C@H](OC(C)=O)[C@@H]1C,N-499 (HIV-),,,0.1 µg/mL
N/C(=N\N=C\c1ccncc1)c1ccccn1,,,,>16 µg/mL
CCCC(C)S/C(N)=N/N=C/c1ccc2ccccc2n1,CNCTC D38/92,,,63 µM
CO[C@H]1/C=C/O[C@@]2(C)Oc3c(C)c(O)c4c(=O)c(c5oc6cc(N7CCN(CC(C)C)CC7)cc(=O)c6nc5c4c3=C2O)NC(=O)/C(C)=C\C=C\[C@H](C)[C@H](O)[C@@H](C)[C@@H](O)[C@@H](C)[C@H](OC(C)=O)[C@@H]1C,N-499 (HIV-),,,≤0.0125 µg/mL
NNC(=O)c1ccncc1,MNT1408,MTT / broth dilution / absorbance,clinical isolate,>0.5 µg/mL
N/C(=N\N=C\c1nc2cc(Cl)ccc2o1)c1cnccn1,,,,>16 µg/mL
COc1cccc(C(=O)Oc2c(OC)cc3ccnc4c3c2N(C)C=C4)c1,,,,20 µg/mL
COc1ccc(C2=Nc3c(N)nc(N)nc3NC(c3ccc4c(c3)OCO4)C2)cc1,MNT1408,MTT / broth dilution / absorbance,clinical isolate,>32 µg/mL
CN(C)CCCN1c2ccccc2Sc2ccc(Cl)cc21,R 7313,,,25 µg/mL
N/C(=N\N=C\c1cc2ccccc2o1)c1cnccn1,,,,>16 µg/mL
CS/C(N)=N/N=C/c1ccc2ccccc2n1,CNCTC D38/92,,,>1000 µM
COc1c(O)c2c(=O)cc(OC)c3c4c(OC)cc(=O)c5c(O)c(OC)c6c(c(c1CC(C)=C6OC(C)=O)c23)c54,,,,>100 µg/mL
OCCN1CCN(CCC=C2c3ccccc3Sc3ccc(Cl)cc32)CC1,R 8411,,,25 µg/mL
CCn1c(S)c(N=NC(N)=[NH2+])c2ccccc21,CNCTC D39/93,,,125 µM
Nc1nc(N)c2c(n1)NC(c1ccc3c(c1)OCO3)CC(c1ccc(Cl)cc1)=N2,MNT1408,MTT / broth dilution / absorbance,clinical isolate,>32 µg/mL
N/C(=N\N=C\c1ccccn1)c1cnccn1,,,,>16 µg/mL
CN(C)C/C=C(\c1ccc(N)cc1)c1ccc(-c2ccc(Br)cc2)cc1,,,,78 µg/mL
CCS/C(N)=N/N=C/c1ccc2ccccc2n1,CNCTC D38/92,,,>1000 µM
c1ccc(CSc2ncnc3ccccc23)cc1,D 38/92,,,63 µM
CN(C)C/C=C(\c1ccc(I)cc1)c1ccc(-c2ccc(Br)cc2)cc1,,,,19 µg/mL
CCCCCCSc1ncnc2ccccc12,D 38/92,,,125 µM
Cc1ccc2oc(/C=N/N=C(\N)c3cnccn3)nc2c1,,,,>16 µg/mL
CN(C)C/C=C(\c1ccc(O)cc1)c1ccc(-c2ccc(Br)cc2)cc1,,,,78 µg/mL
CO[C@H]1/C=C/O[C@@]2(C)Oc3c(C)c(O)c4c(=O)c(c5oc6cc(N7CCN(CC(C)C)CC7)cc(=O)c6nc5c4c3=C2O)NC(=O)/C(C)=C\C=C\[C@H](C)[C@H](O)[C@@H](C)[C@@H](O)[C@@H](C)[C@H](OC(C)=O)[C@@H]1C,N-260,,,0.06 µg/mL
CCCCc1ccc(C(=O)Oc2c(OC)cc3ccnc4c3c2N(C)C=C4)cc1,,,,1.3 µg/mL
C[C@@H]1CN(c2c(F)c(N)c3c(=O)c(C(=O)O)cn(C4CC4)c3c2F)C[C@H](C)N1,N-846 (HIV-),,,16 µg/mL
COc1ccc2c(c1)N(C[C@H](C)CN(C)C)c1ccccc1S2,R 8656,,,25 µg/mL

Repeating the final 4 entries:

CO[C@H]1/C=C/O[C@@]2(C)Oc3c(C)c(O)c4c(=O)c(c5oc6cc(N7CCN(CC(C)C)CC7)cc(=O)c6nc5c4c3=C2O)NC(=O)/C(C)=C\C=C\[C@H](C)[C@H](O)[C@@H](C)[C@@H](O)[C@@H](C)[C@H](OC(C)=O)[C@@H]1C ; strain: N-260 ; value: 0.06 µg/mL
CCCCc1ccc(C(=O)Oc2c(OC)cc3ccnc4c3c2N(C)C=C4)cc1 ; value: 1.3 µg/mL
C[C@@H]1CN(c2c(F)c(N)c3c(=O)c(C(=O)O)cn(C4CC4)c3c2F)C[C@H](C)N1 ; strain: N-846 (HIV-) ; value: 16 µg/mL
COc1ccc2c(c1)N(C[C@H](C)CN(C)C)c1ccccc1S2 ; strain: R 8656 ; value: 25 µg/mL

An empty or dashed field is not shown.